From US7563592B2, “Alizarin-based chromogenic substrates, their uses and composition containing same” (Biomerieux, S.A., priority 1999, dated 2009)

Key:
Format in all cases: cell-based
Escherichia hermannii = assay: β-galactosidase detection on semi-solid medium, clinical and environmental strains (Example 2); conditions: 80 mg/l; 18 hours; 1 strain tested
Escherichia coli = assay: as above; conditions: 80 mg/l; 18 hours; 41 strains tested
Serratia spp. = assay: as above; conditions: 80 mg/l; 18 hours; 14 strains tested
Providencia rettgeri = assay: as above; conditions: 80 mg/l; 18 hours; 3 strains tested
Shigella boydii = assay: as above; conditions: 80 mg/l; 18 hours; 1 strain tested
Serratia odorifera = assay: as above; conditions: 80 mg/l; 18 hours; 1 strain tested
Proteus vulgaris = assay: as above; conditions: 80 mg/l; 18 hours; 4 strains tested
[1] = tested on: 367 different strains collected from clinical and environmental specimens; assay: β-galactosidase detection on semi-solid medium, all strains together (Example 2); conditions: 80 mg/l; 18 hours at 37° C.
Proteus penneri = assay: β-galactosidase detection on semi-solid medium, clinical and environmental strains (Example 2); conditions: 80 mg/l; 18 hours; 1 strain tested
Salmonella spp. = assay: as above; conditions: 80 mg/l; 18 hours; 64 strains tested
Enterobacter aerogenes = assay: as above; conditions: 80 mg/l; 18 hours; 9 strains tested
Proteus mirabilis = assay: as above; conditions: 80 mg/l; 18 hours; 16 strains tested
Shigella sonnei = assay: as above; conditions: 80 mg/l; 18 hours; 10 strains tested
Providencia stuartii = assay: as above; conditions: 80 mg/l; 18 hours; 10 strains tested
Klebsiella ozaenae = assay: as above; conditions: 80 mg/l; 18 hours; 3 strains tested
Klebsiella oxytoca = assay: as above; conditions: 80 mg/l; 18 hours; 13 strains tested
Citrobacter diversus = assay: as above; conditions: 80 mg/l; 18 hours; 9 strains tested
Morganella morganii = assay: as above; conditions: 80 mg/l; 18 hours; 12 strains tested
Yersinia enterocolitica = assay: as above; conditions: 80 mg/l; 18 hours; 14 strains tested
Enterobacter cloacae = assay: as above; conditions: 80 mg/l; 18 hours; 21 strains tested
Aeromonas caviae = assay: as above; conditions: 80 mg/l; 18 hours; 7 strains tested
Citrobacter freundii = assay: as above; conditions: 80 mg/l; 18 hours; 16 strains tested
Enterobacter agglomerans = assay: as above; conditions: 80 mg/l; 18 hours; 1 strain tested
Shigella flexneri = assay: as above; conditions: 80 mg/l; 18 hours; 2 strains tested
Klebsiella pneumoniae = assay: as above; conditions: 80 mg/l; 18 hours; 19 strains tested
[2] = tested on: Providencia alcalifaciens; assay: as above; conditions: 80 mg/l; 18 hours; 3 strains tested
Acinetobacter spp. = assay: as above; conditions: 80 mg/l; 18 hours; 53 strains tested
Aeromonas hydrophila = assay: as above; conditions: 80 mg/l; 18 hours; 3 strains tested
Hafnia alvei = assay: as above; conditions: 80 mg/l; 18 hours; 10 strains tested

5-Bromo-4-chloro-3-indolyl-β-D-galactoside [reference compound]
percentage of positive strains (Escherichia hermannii): 100%
percentage of positive strains (Escherichia coli): 95%
percentage of positive strains (Serratia spp.): 79%
percentage of positive strains (Providencia rettgeri): 0%
percentage of positive strains (Shigella boydii): 0%
percentage of positive strains (Serratia odorifera): 100%
percentage of positive strains (Proteus vulgaris): 0%
color of colonies expressing β-galactosidase activity [1]: turquoise
percentage of positive strains (Proteus penneri): 0%
percentage of positive strains (Salmonella spp.): 0%
percentage of positive strains (Enterobacter aerogenes): 100%
percentage of positive strains (Proteus mirabilis): 0%
percentage of positive strains (Shigella sonnei): 100%
percentage of positive strains (Providencia stuartii): 0%
percentage of positive strains (Klebsiella ozaenae): 67%
percentage of positive strains (Klebsiella oxytoca): 100%
percentage of positive strains (Citrobacter diversus): 89%
percentage of positive strains (Morganella morganii): 0%
percentage of positive strains (Yersinia enterocolitica): 29%
percentage of positive strains (Enterobacter cloacae): 100%
percentage of positive strains (Aeromonas caviae): 86%
percentage of positive strains (Citrobacter freundii): 100%
percentage of positive strains (Enterobacter agglomerans): 100%
percentage of positive strains (Shigella flexneri): 0%
percentage of positive strains (Klebsiella pneumoniae): 100%
percentage of positive strains [2]: 0%
percentage of positive strains (Acinetobacter spp.): 0%
percentage of positive strains (Aeromonas hydrophila): 100%
percentage of positive strains (Hafnia alvei): 80%
